In experiment [1] the target is recombinant soluble homotrimeric HA of A/Solomon Islands/3/06 (H1N1) (Influenza A virus A/Solomon …). Put plainly: microarray, BCC supernatant IgG, trimeric HA.
Experiment [2] deals with recombinant soluble homotrimeric HA of A/California/4/09 (H1N1) (Influenza A virus A/California/4/09 …). Put plainly: microarray, BCC supernatant IgG, trimeric HA.
For experiment [3], the target named is hemagglutinin (HA) of influenza A/Wisconsin/67/05 H3N2 (Influenza A virus A/Wisconsin/67/2005 …). Put plainly: ELISA, inactivated whole virions coated; transfection supernatant set 5. Background: ELISA stands for enzyme-linked immunosorbent assay.
Experiment [4] addresses recombinant soluble homotrimeric HA of A/chicken/Vietnam/NCVD-016/08 - H5N1 (Influenza A virus …). Put plainly: micro-array; captured IgG, V5-tagged trimeric HA.
Experiment [5] addresses recombinant soluble homotrimeric HA of A/northern shoveler/California/HKWF115/2007 - H6N1 (Influenza A virus A/northern …). Put plainly: micro-array; captured IgG, V5-tagged trimeric HA.
The target of experiment [6] is recombinant soluble homotrimeric HA of A/duck/Yangzhou/02/2005 - H8N4 (Influenza A virus …). Put plainly: micro-array; captured IgG, V5-tagged trimeric HA.
For experiment [7], the target named is recombinant soluble homotrimeric HA of A/duck/Yangzhou/02/05 (H8N4) (Influenza A virus …). Put plainly: microarray, BCC supernatant IgG, trimeric HA.
In experiment [8] the target is recombinant soluble homotrimeric HA of A/chicken/Vietnam/NCVD-016/08 (H5N1) (Influenza A virus …). Put plainly: microarray, BCC supernatant IgG, trimeric HA.
Experiment [9] addresses recombinant soluble homotrimeric HA of A/northern shoveler/California/HKWF115/07 (Influenza A virus A/northern …). Put plainly: microarray, BCC supernatant IgG, trimeric HA.
The target in experiment [10] is recombinant soluble homotrimeric HA of A/Egypt/3300-NAMRU3/08 (H5N1) (Influenza A virus …). Put plainly: microarray, BCC supernatant IgG, trimeric HA.
Experiment [11] has as its target recombinant soluble homotrimeric HA of A/Wisconsin/67/05 (H3N2) (Influenza A virus A/Wisconsin/67/05 …).

Substitutions are numbered along the chain they refer to.

B1: TCN-522 (3212_I12) (antibody, V domains shown)
VH: QVQLQQWGAGLLKPSETLSLTCTVSGGSLTDYSWNWIRQPPGKGLEWIGDTLHNGYTNYNPSLRGRVSISIDTSKNQVSLRLTSVTAADTALYYCARGSGGYGGFDYFGKLRTWDFWGQGTLVTVSS
VL: DIQLTQSPSSLSASVGDRVTITCRASQGIRNDLGWYQQKPGNAPKRLIFGASSLQSGVPSRFSGSGSGTEFTLTISSLQPEDFATYYCLQHNSYPYTFGQGTKLEIK
For the molecule B1, the “Trimeric HA Binding: RLU” value in experiment [1] is 38900 RLU; in [2] it was 5020 RLU.

B2: TCN-557 (5081_A04) (antibody, V domains shown)
VH: QVQLVQSGAEVKKPGASVKVSCKASGHTFTGYYIHWVRQAPGQGLEWMGWINPDSGATSSAQNFQGRVTMTGDTSSSTAYMELSRLSFDDTAVYYCARVLFTSPFDFWGEGTLVTVSS
VL: QAVVTQEPSLAVSPGGTVTLTCGSSTGAVTRGHYPYWFQQKPGQAPRALIYDSAGNRHSWTPARFSGSLLGGKAALTLSGAQPEDEAEYYCLLSYSGVWVFGGGTKLTVL
For B2, in [3], the OD450 turned out to be 3.47 OD450.

B3: TCN-536 (5095_N01) (antibody, V domains shown)
VH: QVQLQQWGAGLLKPSETLSLTCAVYGGSFSVSGYYWSWIRQPPGRGLEWIGEISHGGSTNYNPSLKSRVTISVDTTKNQFSLRLSSVTAADTAVYYCARGTDPDTEVYCRVGNCAAFDYWGQGSLVTVSS
VL: EIILAQSPGTLSLSPGERATLSCRASQFVSTRSLAWYQQRPGQAPRLLIYGASSRATGIPDRFSGSGSGTDFTLTISRLEPEDFAVYYCQHYGYSPRYAFGQGSKVEIK
B3: the “Trimeric HA Binding: RLU” value in [4] was 19 RLU; in [5], 95 RLU.

B4: TCN-548 (5092_P01) (antibody, V domains shown)
VH: QVQLQESGPGLVKPSETLSLTCTVSSGPMSDYYWSWIRQPPGKGLEWIGHVSVSHGGRTKSNPSVMSRVTISVETSKNQFSLKLTSVTAADTAVYYCARLNYYDRSGYHSPDGPSNNWFDPWGQGTLVTVSS
VL: DIVMTQSPDSLAVSLGERATINCKSSQSVLYSSNNKNYLAWYQQKPGQPPKLLIYWASTRESGVPDRISGSGSGADFTLTISSLQAEDVAVYYCQQYFATPRTFGQGTKVEIK
Turning to B4, the “Trimeric HA Binding: RLU” value in experiment [4] was determined as 1060 RLU; in [6] it was 5740 RLU; in [5], 2100 RLU.

B5: TCN-548 (5092_P01) (antibody, V domains shown)
VH: B4 VH
VL: B4 VL
As for B5, the “Trimeric HA Binding: RLU” value worked out at 283 RLU in experiment [1], 234 RLU in [2] and 184 RLU in experiment [7].

B6: TCN-549 (5092_P04) (antibody, V domains shown)
VH: QVQLVQSGAEVKKPGASVKVSCKASGYTFTGYYMHWVRQAPGQGLEWMGWINPNSGDTNYAQKFQGRVTMTRDTSITTAYMELSSLRSDDTAVYYCARDSPYSSSWSFFDYWGQGPLVTVSS
VL: B4 VL with N37S, Y38H, I68F, A75T, T80I, F98Y, A99F, T100S, R102L, Q106G
Turning to B6, the “Trimeric HA Binding: RLU” value in experiment [1] was 284 RLU; in experiment [8], 498 RLU; in experiment [9], 1100 RLU.

B7: TCN-549 (5092_P04) (antibody, V domains shown)
VH: B6 VH
VL: B4 VL with N37S, Y38H, I68F, A75T, T80I, F98Y, A99F, T100S, R102L, Q106G
Turning to B7, the “Trimeric HA Binding: RLU” value is 1600 RLU in experiment [4], 9450 RLU in experiment [6] and 996 RLU in [5].

B8: TCN-545 (5082_I15) (antibody, V domains shown)
VH: QVQLQQWGAGLLKPSETLSLSCAVFGGSFSDYYWTWIRQPPGKGLEWIGEIKHSGRTNYNPSLESRVTISVDTSKNQFSLKLSSVTAADTAIYYCARGTDPDTEGYCRSGSCSAFDFWGQGTLVTVSS
VL: EIVLTQSPGTLSLSPGERATLSCRASHFVNYRSLAWYQQTPGQVPRLLIYGASTRATGIPDRFSGSGSGTDFTLTISRLEPEDFAVYFCQQYGGSPRYTFGQGTRLEIK
Consider B8, for which the entries for the “Trimeric HA Binding: RLU” value in experiment [4] and in [6] were 3230 RLU and 13200 RLU, respectively.

B9: TCN-542 (5079_A16) (antibody, V domains shown)
VH: QVQLQESGPGLVKPSQTLSLTCTVSGGSISSGNYYWNWVRQHPGKGLEWIGYIYYRGSTFYNPSLKSRVTISIDTSKNQFSLRLSSVTAADTAVYYCAKDTRSSLDNYQYGMDVWGQGTTVTVSS
VL: QTVVTQEPSLTVSPGGTVTLTCASSTGAVTSSYFPNWFQQKPGQAPRPLIYSTTIRHSWTPARFSGSLLGGKAALTLSGVQPEDEADYYCLLYSGGDPVAFGGGTKLTVL
On to B9, for which the “Trimeric HA Binding: RLU” value in experiment [7] came out at 332 RLU.

B10: TCN-544 (5082_A19) (antibody, V domains shown)
VH: QVQLQESGPGLVKPSETLSLTCTVSRGSIGHYFWSWIRQPPGKGLEWIGYISYSGSTKYNPSLRSRVTISVDTSKNQFSLNLNSVTATDTALYYCAREDYDILTGAGPGMEVWGQGTTVTVSS
VL: QSMLTQPPSASGTPGQRVTISCSGSSSNIGSNTVNWFKHLPGTAPKLLIYRNDLRPSGVPDRFSGSKSGTSASLAISGLQSEDEADYYCATWDDSLNGFYVFGTGTKVTVL
Turning to B10, the results for the “Trimeric HA Binding: RLU” value in [4], in experiment [6] and in experiment [5] were 3070 RLU, 9440 RLU and 2920 RLU, respectively.

B11: TCN-556 (5089_K12) (antibody, V domains shown)
VH: QVQLVQSGAEVKKPGASVKVSCKASGYTFIGYDMHWVRQAPGQGLEWMGWINAKRGGTNYAQKFQGRVTMTRDTSISTAYMELNSLRSDDTAVYYCARGVGSRTTIFGVLNPEFDYWGQGTLVTVSS
VL: QSALTQPPSASGSPGQSVTISCTGSSSDVGGYDYVSWYQQHPGKAPKLLIYEVTKRPSGVPDRFSGSKSGNTASLTVSGLQAEDEADYYCSSYAGNYNHVFGPGTKVTVL
B11 registered an OD450 in experiment [3] of 0.34 OD450.

B12: TCN-560 (5084_P10) (antibody, V domains shown)
VH: EVQLVESGGGLVQPGGSLRLSCAASGFIFRNYWMSWVRQAPGKGLEWVANIKQDGREKYYVDSLRGRVNISRDNAENSLYLHMNSLRVEDTAVYFCARARMVVVTGDGFDVWGHGTMVTVSS
VL: DIQMTQSPSSLSASVGDRVTITCRASQNIKRYFNWYQQKPGKAPKLLIYAASNLENGVPSRFSGSGSGTDFTLTISSLQPEDFATYYCQQSFSKSWTFGQGTNVDIK
Take B12: the OD450 in experiment [3] was found to be 0.3 OD450.

B13: TCN-535 (5246_P19) (antibody, V domains shown)
VH: QVQLVQSGSEVKKPGTSVKVSCTASGSVFTNYGISWVRQAPGQGLEWMGGIIPLFGAAKYAQKFQGRVTITADESTKTVYMELSRLTSKDTAIYFCAKAPRVYEYYFDQWGQGTPVTVSS
VL: EIVLTQSPGTLSLSPGERATLSCRASQSVSSSQLAWYQQKPGQAPRLIIYGASTRATGIPDRFSGSGSGTDFTLTIGRLEPEDFAVFFCQQYSTSPPTFGQGTKVDFK
Turning to B13, the “Trimeric HA Binding: RLU” value is 39400 RLU in experiment [10]; 39400 RLU in [1]; 48600 RLU in experiment [2]; 50000 RLU in experiment [8]; 36600 RLU in [7]; 48200 RLU in experiment [9].

B14: TCN-558 (5248_H10b) (antibody, V domains shown)
VH: B13 VH
VL: EIVMTQFPATLSVSPGERVTLSCRASQSVSNNLAWYQQKPGQPPRLLIYDASTRATGVPAKFSGTGSGTEFTLSISSLQSEDFAVYYCQQYHNWPPSYSFGLGTKLEIK
In turn, B14 gave an OD450 in experiment [3] of 0.2 OD450.

B15: TCN-537 (3194_D21) (antibody, V domains shown)
VH: QVQLQQWGSGLLKPSETLSLTCAVYGGSFRDDYWTWIRQPPGKGLEWIGEINHSGRTNYNPSLKSRVTISVDTSLKQFSLKVISVTAADTAVYYCARGTSHVSRYFDWLPPTNWFDPWGQGTQVTVSS
VL: DIVLTQSPGTLSLSPGERATLSCRASQSVSSSYLAWYQQKPGQAPRLVMYGAATRATGIPDRFSGSGSGPDFTLTISRLEPEDFAMYYCQQYGNSPITFGQGTRLEIK
With B15, the “Trimeric HA Binding: RLU” value in experiment [4] was determined as 4480 RLU; in [6], 25500 RLU.

B16: TCN-537 (3194_D21) (antibody, V domains shown)
VH: B15 VH
VL: B15 VL
On to B16, for which the “Trimeric HA Binding: RLU” value in experiment [10] is 38200 RLU; in experiment [2], 21900 RLU; in [8], 8620 RLU; in experiment [7], 7830 RLU; in experiment [9], 5210 RLU; in [11] it was 549 RLU.

Values taken from patent US20120207760A1, “Compositions and Methods for the Therapy and Diagnosis of Influenza” (THERACLONE SCIENCES, published 2012).
